{
  "source": "paper PMC8765430",
  "about": "“MdaB and NfrA, Two Novel Reductases Important in the Survival and Persistence of the Major Enteropathogen Campylobacter jejuni” (Journal of Bacteriology, 2022)",
  "target": "T1, RrpB (UniProt Q0P870)",
  "T1 sequence (looked up, limits assumed)": "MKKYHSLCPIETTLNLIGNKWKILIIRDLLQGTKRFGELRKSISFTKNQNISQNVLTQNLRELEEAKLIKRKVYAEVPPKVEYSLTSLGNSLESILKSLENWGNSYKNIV",
  "assay": "EMSA",
  "conditions": "specificity test; EMSA: Odyssey infrared EMSA kit, 50 nM probe, 20 ul, 6% gel at 4 C; recombinant protein; protein details: C-terminal His6 (pET21a); label: 5' IRDye 800",
  "note": "The exact form of at least one protein or probe is not confirmed. At least one verdict was read from the data and is not stated in words by the source. Protein sequences can lack the tags named with them.",
  "data": [
    {"sequence": "TTAAAAAATATGTTATAATTTTAAAAAATAAGGATTTATAATGAAAAAATAT (double strand) [rrpBprobe (rrpB WT)]", "values": [
      {"measurement": "binding result", "result": "binds"}
    ]}
  ]
}
